Test results reported in PMC7739888, “Induction of the cydAB Operon Encoding the bd Quinol Oxidase Under Respiration-Inhibitory Conditions by the Major cAMP Receptor Protein MSMEG_6189 in Mycobacterium smegmatis”.

Molecular target: T1, Crp1 (MSMEG_6189), C-terminal His6 (UniProt A0R5H1)
T1 sequence (looked up, limits assumed): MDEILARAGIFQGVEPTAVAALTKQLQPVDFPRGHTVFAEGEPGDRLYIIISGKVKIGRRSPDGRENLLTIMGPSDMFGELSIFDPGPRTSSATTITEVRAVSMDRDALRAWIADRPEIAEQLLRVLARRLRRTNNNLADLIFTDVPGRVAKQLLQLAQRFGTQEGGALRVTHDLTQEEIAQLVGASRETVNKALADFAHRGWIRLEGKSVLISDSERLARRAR
Assay: DNase I footprinting
Details: CBS2 better than CBS1, footprinting: 20 mM Tris-HCl pH 8.0, 0.2 mM MgCl2, 2.1 mM KCl, 0.04 mM DTT, 11.1% glycerol, 25 C, 0.15-0.6 uM Crp1, recombinant protein, protein details: C-terminal His6, label: 5' TAMRA on non-coding strand, probe letters rebuilt from the primers and the genome, part of a longer molecule

TCGTCCTCGGCGTCTTCGAGGTCGTCTCGGCGTTCGGCATCCGCAGCGGGGTCAGGAAGCTCGGCGCCGCCTTGTCGACCGGCTCACCATCGGCGCCTCCCGTGAGCTAACCCACCGCGCTACCTGCGTCGATCTCCTGGCTATCGCCGAGCATCGCTACTACACTCCGTCGTAGATCGACCTGGCAGGCTCGAAAGTAGGTCAGATGGACGCTCTGGAC (double strand) [cydA footprint fragment 271-bp]
binding result (200 uM cAMP, wider, clearer protection): binds
binding result (no cAMP): binds more weakly

For at least one entry, the source does not settle the construct or the ends of the probe. A weaker result is weaker than the reference pair of the same experiment. Tags and fusion partners may be left off the protein sequences shown.
